Measurements published in patent US20220226282A1 (priority 2021, published 2022).

Target: BoNT/A LC (Clostridium botulinum, UniProt P0DPI0)
Test: Intrinsic tryptophan fluorescence quenching of BoNT/A LC
Format: binding, C. botulinum

Question: How did the ΔG (T 298 K) turn out when `O=c1ccc2cc3c(-c4ccc([N+](=O)[O-])cc4)coc3cc2o1` [Compound 1, 3-(4-nitrophenyl)-7H-furo[3,2-g]chromen-7-one] was run?
Answer: -6.02 kcal/mol

Question: And the ΔG (T 310 K)?
Answer: -5.59 kcal/mol
